Assay results as given in PMC5487381, “Thioredoxin A Is Essential for Motility and Contributes to Host Infection of Listeria monocytogenes via Redox Interactions” (Frontiers in Cellular and Infection Microbiology, 2017).
For at least one entry, the source does not settle the construct or the ends of the probe. Where a protein sequence is shown, tags need not be part of it.

Target: T1, SigH (Listeria monocytogenes EGD-e) (UniProt Q8YAA8)
T1 sequence (looked up, limits assumed): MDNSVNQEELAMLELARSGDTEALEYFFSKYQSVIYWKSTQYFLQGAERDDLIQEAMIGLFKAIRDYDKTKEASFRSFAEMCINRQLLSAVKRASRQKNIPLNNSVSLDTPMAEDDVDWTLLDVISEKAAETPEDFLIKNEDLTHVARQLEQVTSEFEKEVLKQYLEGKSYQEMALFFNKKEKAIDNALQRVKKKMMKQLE
Experiment: EMSA
Conditions: 5 mM MgCl2, 2.5 mM EDTA, 2.5 mM DTT, EMSA: 200 ng DNA, 50 mM Tris-HCl pH 8.0, 250 mM NaCl, 5 mM MgCl2, 2.5 mM DTT, 20% glycerol, 30 min, room temperature, native 5% PAGE, 0.5x TAE, recombinant protein, protein details: N-terminal His, label: none (ethidium bromide), probe letters rebuilt from the primers and the genome

Row | Sequence | binding result
1 | AAGCTGCTGTCATTCCAGCAGGCCCCGCCCCAATAATAATCACATCATAAATTTTTTCTTCACTAGCCATTCTTTTTGCCCTCCTCGTTTATGTGTATACAATAGTTAGCCTAAATTAATCCTAATACGGAATAGCAAAAAGGTCTATTTATCTGCTCAGGACTCGCTCAATATCTCGCGCACATTTACTACATTCAAATTCTTCTACTAATTGAAGCTTCAAATGAGGTAAAAACAGCTTAGCAATTGCACTAGCCACAGTTTCTATCGTATAACGACCAAGTATTAAATCTTTCCCAGCATC (double strand) [PtrxB promoter fragment] | binds
2 | TTACCATGATTTAATTCACTCCTTATGACTTTTGTACACACAGTATAGCACCTAGACCTATTTGGAGCCATGTTTTTGCTCACTTGTTTACTTGAACTCAACGATGGTTACGCCGTTCCCGCCTTCTGCTGCTGCACCGAAACGAATCGATTTGACCATGCGATGATTTTTCAGATACTCTGTGACGCCAGTTCTAAGGGCACCAGTTCCTTTACCGTGAATAATGGCAACTTGAGGATATCCTGCGAGCAGTGCTTCATCCAAGTATTTGTCGACTTTTTGCAAAGCATCTTCGTAACGTTCGCCGCGCAAATCGAGTTCGCTTTTAGCTGGAGAACCACTACTATGAACCG (double strand) [PtrxA promoter fragment] | binds
